Compound potency records, mixed from different reports. Data source: NIAID ChemDB in PubChem.

Shared fields: tests in culture; species: HIV-1; cells: CEM; read-out: EC50

Blank or dashed fields: not listed here. ECn is the concentration giving n% inhibition of infection, replication or growth. Conditions beyond the fields shown may differ between rows.

structure | mutations | strain or isolate | read by | result
Cc1cn([C@H]2CC[C@@H](CO)O2)c(=O)[nH]c1=O |  | BRU | p24 | >31.6 µM
CC(C)=CCN1Cc2cc(Cl)cc3[nH]c(=S)n(c23)C[C@@H]1C | RT-Y181C | IIIB | cytopathic effect / XTT | 6.6 µM
CN1C(=O)N(Cc2ccccc2)S(=O)(=O)c2cscc21 | RT-Y188H | IIIB | syncytia | ≥324 µM
COC(=O)[C@H](C)OP(=O)(OC[C@@H]1C=C[C@H](n2cc(C)c(=O)[nH]c2=O)O1)Oc1ccccc1 |  |  |  | 40 µM
C#CCN1C(=O)N(Cc2ccccc2)S(=O)(=O)c2cscc21 | RT-Y181C | IIIB | syncytia | 36.1 µM
Nc1ccn([C@H]2CC[C@@H](CO)O2)c(=O)n1 |  | IIIB-TIBO(0.1) | syncytia | 0.04 µM
Nc1nc2c(ncn2[C@H]2CC[C@@H](CO)O2)c(=O)[nH]1 |  | IIIB | syncytia | 1.1 µM
CC(C)Nc1cccnc1N1CCN(C(=O)c2cc3cc(NS(C)(=O)=O)ccc3[nH]2)CC1 |  | HXB2 | syncytia | 0.01 µg/mL
CC(C)Nc1cccnc1N1CCN(C(=O)c2cc3cc(NS(C)(=O)=O)ccc3[nH]2)CC1 | RT-L100I | IIIB | syncytia | 0.46 µg/mL
CC1=NN(c2nc(N)nc(NS(=O)(=O)c3cc(C)c(Cl)cc3S)n2)C(C)(C)C1 |  | RF | cytopathic effect / XTT | 116 µM
O=c1[nH]cnc2c1ncn2[C@H]1CC[C@@H](CO)O1 |  | IIIB | RT activity | 2.6 µg/mL
Nc1ncnc2c1ncn2CCOCP(=O)(O)O |  | IIIB | syncytia | 8.5 µM
O=C1Nc2cscc2S(=O)(=O)N1c1cccc(Cl)c1 |  | IIIB | syncytia | >63.5 µM
CN(C)c1ncnc2c1ncn2CCOCP(=O)(O)O |  | IIIB | cytopathic effect / MTT | >100 µg/mL
Nc1nc2c(ncn2[C@H]2CC[C@@H](CO)O2)c(=O)o1 |  | IIIB | RT activity | >500 µg/mL
Cc1cc(S(=O)(=O)Nc2nc(N)nc(N3CCCCC3)n2)c(S)cc1Cl |  | RF | cytopathic effect / XTT | >200 µM
Nc1nc2c(ncn2[C@H]2CC[C@@H](CO)O2)c(=O)[nH]1 | RT-Y181C | IIIB nevirapine-resistant (RT Y181C) | syncytia | 3 µM
CCNc1cccnc1N1CCN(C(=O)c2cc3cc(OC)ccc3[nH]2)CC1 | RT-L100I | IIIB-TIBO(0.5)(RT-L100I) | syncytia | 1.3 µg/mL
CCCN(C)c1nc(N)nc2c1[nH]c[n+]2C[C@@H](C)OCP(=O)(O)O |  | IIIB | cytopathic effect / MTT | 5.5 ± 2.1 µg/mL
CCc1cc(NCc2nc3c(Cl)ccc(Cl)c3o2)c(=O)[nH]c1C | RT-Y181C | Pyr(RT-Y181C) | syncytia | 11 µM
CC(C)=CCN1Cc2cc(Cl)cc3[nH]c(=S)n(c23)C[C@@H]1C | RT-C181I | IIIB | syncytia | 15 µM
O=C(O)COc1c(O)c2cc(c1O)C(c1ccc(F)cc1)c1cc(c(O)c(OCC(=O)O)c1O)C(c1ccc(F)cc1)c1cc(c(O)c(OCC(=O)O)c1O)C(c1ccc(F)cc1)c1cc(c(O)c(OCC(=O)O)c1O)C2c1ccc(F)cc1 |  | IIIB | syncytia | 10 µg/mL
CN1C(=O)N(Cc2ccccc2)S(=O)(=O)c2cscc21 | RT-E138K |  | syncytia | ≥324 µM
CCC(Sc1cc(Cl)c(C)cc1S(=O)(=O)Nc1nc(N)nc(N(C)C)n1)C(=O)O |  | RF | cytopathic effect / XTT | >200 µM
CCC(C)Nc1nc(N)nc2c1[nH]c[n+]2C[C@@H](C)OCP(=O)(O)O |  | IIIB | cytopathic effect / MTT | >100 µg/mL
Cc1cc(S(=O)(=O)Nc2nnc3cnc4ccccc4n23)c(S)cc1Cl |  | RF | cytopathic effect / XTT | 75.5 µM
Nc1ccn([C@H]2CC[C@@H](CO)O2)c(=O)n1 |  | HXB2 | syncytia | 0.01 µg/mL
Cc1cn([C@@H]2O[C@H](CO[Si](C)(C)C(C)(C)C)[C@@]3(OS(=O)(=O)C=C3N)[C@H]2O[Si](C)(C)C(C)(C)C)c(=O)[nH]c1=O | RT-E138K | IIIB | syncytia | 4.6 µM
CC(C)=CCOc1cc(NC(=S)c2ccsc2C)ccc1Cl | RT-V179D | IIIB | cytopathic effect | 0.012 µg/mL
N#CCN1C(=O)N(Cc2ccccc2)S(=O)(=O)c2cscc21 | RT-E138K | IIIB | syncytia | 7.2 µM
O=c1[nH]cnc2c1ncn2[C@H]1CC[C@@H](CO)O1 | RT-L100I Y188H | IIIB TIBO R82913 STR-B22 (RT L100I Y188H) | syncytia | 8 µM
Nc1nc2c(ncn2[C@@H]2C[C@H](CO)[C@@H](O)[C@H]2O)c(=O)o1 |  | IIIB | RT activity | 240 µg/mL
C[C@H](Cn1cnc2c(N)nc(N)nc21)OCP(=O)(O)O |  | HE | syncytia | 2 µM
Cc1cc(S(=O)(=O)Nc2nnc3c4ccccc4ccn23)c(S)cc1Cl |  | RF | cytopathic effect / XTT | 143.5 µM
O=c1[nH]cnc2c1ncn2[C@H]1CC[C@@H](CO)O1 |  | IIIB | syncytia | 5 µM
Fc1cccc(F)c1[C@H]1SCc2nc3ccccc3n21 | RT-Y188C | IIIB | cytopathic effect / XTT | 4.16 µM
Nc1ncnc2c1ncn2CCOCP(=O)(O)O | RT-L100I Y181C | IIIB TIBO R82913 STR-1 (RT L100I Y181C) | syncytia | 25 µM
COc1ccc2c(c1)N(C(=O)OC(C)C)[C@@H](CSC)C(=S)N2 | RT-G190E | IIIB | p24 | >10 µg/mL
Cc1ccnc2c1NC(=O)c1cccnc1N2C1CC1 | RT-K103N | IIIB | cytopathic effect | 1.5 µg/mL
Cc1occc1C(=S)Nc1ccc(Cl)c(C(=O)OC2CCCC2)c1 | RT-V106A | IIIB | syncytia | 0.04 µg/mL
Cc1ccnc2c1NC(=O)c1cccnc1N2C1CC1 |  | IIIB | syncytia | 0.006 µg/mL
CC(C)Nc1cccnc1N1CCN(C(=O)c2cc3cc(NS(C)(=O)=O)ccc3[nH]2)CC1 | RT-E138K | IIIB | cytopathic effect | 0.016 µg/mL
Fc1cccc(F)c1C1SCc2nc3ccccc3n21 | RT-V106N | IIIB | cytopathic effect / XTT | 7.63 µM
C=C(C)OC(=O)N1c2cc(Cl)ccc2NC(=S)C1(C)C | RT-Y181C | Pyr(RT-Y181C) | syncytia | 0.145 µM
Cc1cn([C@@H]2O[C@H](CO[Si](C)(C)C(C)(C)C)[C@@]3(OS(=O)(=O)C=C3N)[C@H]2O[Si](C)(C)C(C)(C)C)c(=O)[nH]c1=O | RT-E138K | IIIB | syncytia | 6.2 µM
Cc1ccnc2c1NC(=O)c1cccnc1N2C1CC1 | RT-E138K | IIIB | syncytia | 0.08 µM
Cc1cn([C@@H]2O[C@H](CO[Si](C)(C)C(C)(C)C)C3(OS(=O)(=O)C=C3N)[C@H]2O[Si](C)(C)C(C)(C)C)c(=O)n(C)c1=O | RT-M41L T215Y | HXB2 | syncytia | 0.05 µg/mL
CCN1C(=O)N(Cc2cccc(Cl)c2)S(=O)(=O)c2cscc21 | RT-V106A |  | syncytia | 33.6 µM
CC(C)=CCN1Cc2cc(Cl)cc3[nH]c(=S)n(c23)C[C@@H]1C | RT-Y181I | Pyr/BHAP(RT-Y181I) | syncytia | 16 µM
C=CCNc1ncnc2c1ncn2CCOCP(=O)(O)O |  | IIIB | cytopathic effect / MTT | 8 µg/mL
N#CCN1C(=O)N(Cc2cccc(F)c2)S(=O)(=O)c2cscc21 |  | IIIB | syncytia | 0.6 µM
Cc1cn([C@H]2C[C@H](N=[N+]=[N-])[C@@H](CO)O2)c(=O)[nH]c1=O |  | HXB2 | syncytia | 0.02 µg/mL
Cc1ccnc2c1NC(=O)c1cccnc1N2C1CC1 | RT-V106A | IIIB | syncytia | 2.44 µM
Fc1cccc(F)c1C1SCc2nc3ccccc3n21 |  | IIIB | cytopathic effect / MTT | 1.1 µM
Fc1cccc(F)c1C1SCc2nc3ccccc3n21 | RT-Y181C | Pyridinone-resistant (RT Y181C) | cytopathic effect / MTT | 13.87 µM
CN(C)CCCNc1nc(N)nc2c1ncn2CCOCP(=O)(O)O |  | IIIB | cytopathic effect / MTT | 13 µg/mL
CC(C)=CCN1Cc2cc(Cl)cc3[nH]c(=S)n(c23)C[C@@H]1C | RT-E138K | IIIB | syncytia | 0.31 µM
CC(C)=CCN1Cc2cccc3[nH]c(=S)n(c23)C[C@@H]1C | RT-E138K | IIIB TSAO-T(RT-E138K) | syncytia | 0.09 µM
Cc1cc(S(=O)(=O)Nc2n[nH]c(Nc3ccc(Cl)cc3)n2)c(S)cc1Cl |  | RF | cytopathic effect / XTT | >200 µM
CCNc1nc(N(C)C)nc2c1ncn2C[C@@H](C)OCP(=O)(O)O |  | IIIB | cytopathic effect / MTT | >4 µg/mL
COc1ccc(Nc2nc(NS(=O)(=O)c3cc(C)c(Cl)cc3S)n[nH]2)cc1 |  | RF | cytopathic effect / XTT | 169 µM
C[C@H](Cn1cnc2c(N)ncnc21)OCP(=O)(O)O |  | IIIB | syncytia | 1 µg/mL
C[C@H](CC1CNC2C1OC(N)CN2N)OCP(=O)(O)O |  | IIIB | cytopathic effect / MTT | >100 µg/mL
Cc1cn([C@@H]2O[C@H](CO[Si](C)(C)C(C)(C)C)C3(OS(=O)(=O)C=C3N)[C@H]2O[Si](C)(C)C(C)(C)C)c(=O)n(C)c1=O | RT-Y181I | Pyr/BHAP(RT-Y181I) | syncytia | 30 µM
Cc1cn([C@@H]2O[C@H](CO[Si](C)(C)C(C)(C)C)C3(OS(=O)(=O)C=C3N)[C@H]2O[Si](C)(C)C(C)(C)C)c(=O)n(C)c1=O | RT-Y181C | IIIB | p24 | 2 µg/mL
Fc1cccc(Cl)c1C1OCc2nc3ccccc3n21 | RT-Y181C | Pyridinone-resistant (RT Y181C) | cytopathic effect / MTT | ≥14.69 µM
C[C@@H](Cn1cnc2c(N)ncnc21)OCP(=O)(O)O |  | HE | syncytia | ≥100 µM
Cc1occc1C(=S)Nc1ccc(Cl)c(/C=N/OC(C)(C)C)c1 | RT-G190E | IIIB | p24 | >2 µg/mL
Nc1ncnc2c1ncn2CCOCP(=O)(O)O | RT-L100I | IIIB-BHAP)(0.1)(RT-L100I | syncytia | 8 µM
COc1cc(Nc2nc(NS(=O)(=O)c3cc(C)c(Cl)cc3S)n[nH]2)cc(OC)c1OC |  | RF | cytopathic effect / XTT | 113.8 µM
Cc1cn([C@@H]2O[C@H](CO[Si](C)(C)C(C)(C)C)C3(OS(=O)(=O)C=C3N)[C@H]2O[Si](C)(C)C(C)(C)C)c(=O)n(C)c1=O | RT-L100I | IIIB | syncytia | 0.042 µg/mL
O=C1N(Cc2ccccc2)c2cscc2S(=O)(=O)N1Cc1ccccc1 | RT-K103N | IIIB | syncytia | >10 µM
Nc1ccn([C@H]2CC[C@@H](CO)O2)c(=O)n1 | RT-L100I | IIIB TIBO R82150-resistant (RT L100I) | syncytia | 0.018 µM
Nc1nc2c(ncn2[C@H]2C=C[C@@H](CO)O2)c(=O)o1 |  | IIIB | RT activity | 11 µg/mL
CCOCn1c(Cc2ccccc2)c(C(C)C)c(=O)[nH]c1=O | RT-V106A | IIIB | syncytia | 0.068 µg/mL
Cc1cn([C@H]2C[C@H](N=[N+]=[N-])[C@@H](CO)O2)c(=O)[nH]c1=O |  | BRU | p24 | 0.2 µM
O=P(O)(O)COCCn1cnc2c(NC3CCCCC3)ncnc21 |  | IIIB | cytopathic effect / MTT | >100 µg/mL
Cc1ccnc2c1NC(=O)c1cccnc1N2C1CC1 | RT-K103N |  | syncytia | 5.6 µM
Cc1cn([C@@H]2O[C@H](CO[Si](C)(C)C(C)(C)C)C3(OS(=O)(=O)C=C3N)[C@H]2O[Si](C)(C)C(C)(C)C)c(=O)n(C)c1=O | RT-C181I | IIIB | syncytia | >30 µM
CCN1C(=O)N(Cc2ccccc2)S(=O)(=O)c2cscc21 | RT-L100I | IIIB | syncytia | 10.2 µM
CC(C)=CCOc1cc(NC(=S)c2ccoc2C)ccc1Cl | RT-E138K | IIIB | syncytia | 0.0065 ± 0.0021 µM
CC(C)=CCN1Cc2cc(Cl)cc3[nH]c(=S)n(c23)C[C@@H]1C |  | IIIB | syncytia | 0.02 µM
Cc1cn([C@H]2C[C@H](N=[N+]=[N-])[C@@H](CO)O2)c(=O)[nH]c1=O | RT-E103K | IIIB | syncytia | 0.003 µg/mL

Again, the opening 11 rows:

structure,mutations,strain or isolate,read by,result
Cc1cn([C@H]2CC[C@@H](CO)O2)c(=O)[nH]c1=O,,BRU,p24,>31.6 µM
CC(C)=CCN1Cc2cc(Cl)cc3[nH]c(=S)n(c23)C[C@@H]1C,RT-Y181C,IIIB,cytopathic effect / XTT,6.6 µM
CN1C(=O)N(Cc2ccccc2)S(=O)(=O)c2cscc21,RT-Y188H,IIIB,syncytia,≥324 µM
COC(=O)[C@H](C)OP(=O)(OC[C@@H]1C=C[C@H](n2cc(C)c(=O)[nH]c2=O)O1)Oc1ccccc1,,,,40 µM
C#CCN1C(=O)N(Cc2ccccc2)S(=O)(=O)c2cscc21,RT-Y181C,IIIB,syncytia,36.1 µM
Nc1ccn([C@H]2CC[C@@H](CO)O2)c(=O)n1,,IIIB-TIBO(0.1),syncytia,0.04 µM
Nc1nc2c(ncn2[C@H]2CC[C@@H](CO)O2)c(=O)[nH]1,,IIIB,syncytia,1.1 µM
CC(C)Nc1cccnc1N1CCN(C(=O)c2cc3cc(NS(C)(=O)=O)ccc3[nH]2)CC1,,HXB2,syncytia,0.01 µg/mL
CC(C)Nc1cccnc1N1CCN(C(=O)c2cc3cc(NS(C)(=O)=O)ccc3[nH]2)CC1,RT-L100I,IIIB,syncytia,0.46 µg/mL
CC1=NN(c2nc(N)nc(NS(=O)(=O)c3cc(C)c(Cl)cc3S)n2)C(C)(C)C1,,RF,cytopathic effect / XTT,116 µM
O=c1[nH]cnc2c1ncn2[C@H]1CC[C@@H](CO)O1,,IIIB,RT activity,2.6 µg/mL